Tested on: SARS-CoV
Assay: Antiviral activity against SARS-CoV MA15 infected in Balb/c mouse assessed as protection against virus-induced lethal infection by measuring mouse survival rate at 30 mg/kg, po via gavage administered for 9 days starting from 10 hrs prior to viral infection relative to control
Settings: time 9 day

`CN(C)C(=O)COC(=O)Cc1ccc(OC(=O)c2ccc(NC(=N)N)cc2)cc1` was tested, and the Survival was 60%.

Reference: ChEMBL document CHEMBL4715853 (J Med Chem, 2020)
